Pooled drug test results. Numbers come from NIAID ChemDB, via PubChem.

All rows: whole-cell or culture tests; agent: Aspergillus fumigatus; read-out: MIC

Neighbouring rows are from separate reports.

structure,strain or isolate,result
O=C1CCC(c2ccccc2)=NN1Cc1n[nH]c(=S)n1-c1ccc(Cl)cc1,-,4 µg/mL
C[C@H]1[C@H](O)[C@@H](C)/C=C/C=C/C=C/C=C/C=C/C=C/C=C/[C@H](O[C@@H]2O[C@H](C)[C@@H](O)[C@H](N)[C@@H]2O)C[C@@H]2O[C@](O)(C[C@@H](O)C[C@@H](O)CC[C@H](O)[C@@H](O)C[C@@H](O)CC(=O)O[C@H]1C)C[C@H](O)[C@H]2C(=O)O,-,0.03 µg/mL
CCOC(=O)c1sc(SC)cc1-c1ccc(F)cc1,AF-27,>100 µg/mL
CC(=O)N1CCN(c2ccc(OC[C@H]3CO[C@](Cn4ccnc4)(c4ccc(Cl)cc4Cl)O3)cc2)CC1,2 strains,5 µg/mL
O=C1CCC(c2ccc(Br)cc2)=NN1Cc1n[nH]c(=S)n1-c1ccccc1,-,9 µg/mL
CCC(O)(C#Cc1c(C)nc(N)nc1N)CC,-,>50 µg/mL
COc1ccc(/C=N\N(C)Cc2cccc3ccccc23)cc1,-,>64 µg/mL
Cn1ncc(C(c2ccccc2)n2ccnc2)c1-c1ccccc1,-,>200 µM
C[C@@H](N1CCN(c2ccc(OC(F)(F)F)cc2)C1=O)C(O)(Cn1cncn1)c1ccc(F)cc1F,IFO6344,0.5 µg/mL
CCCCCCCCCC[C@@H]1CC(=O)NCC(=O)N[C@@H](CCCCN)C(=O)N[C@@H](CC(C)(C)C)C(=O)N1,-,8 µg/mL
Cc1ccc(C2=NN(Cc3n[nH]c(=S)n3-c3ccccc3)C(=O)CC2)cc1,-,8 µg/mL
O=C1C[C@@H](c2cccc(F)c2)Cc2cc(O)cc(O)c21,Clinical isolate H237,274 µg/mL
CCCCCCCCCCCCC(C)(O)C1CC(=O)NC(CO)C(=O)N[C@H](C)C(=O)NC(CC(=O)O)C(=O)NC(CC(N)=O)C(=O)NC(CC(N)=O)C(=O)NC(CO)C(=O)NC([C@@H](C)O)C(=O)O1,MF-13,16 µg/mL
CCOC(=O)c1sc2cc(-c3ccc(OC)cc3)oc(=O)c2c1N,AF-27,>100 µg/mL
O=C(c1cc(O)c(O)c(Br)c1Br)c1cc(O)c(O)c(Br)c1Br,HIC 6094,>100 µg/mL
O=C1CCC(c2ccc(Oc3ccccc3)cc2)=NN1Cc1n[nH]c(=S)n1-c1ccc(Br)cc1,-,14 µg/mL
CCCCCCCCCCC[C@@H]1CC(=O)NCC(=O)N[C@@H](CCCCN)C(=O)N[C@@H](C(C)C)C(=O)N1,TIMM0063,128 µg/mL
CCCCCCCCC[C@@H]1CC(=O)NCC(=O)N[C@@H](CCCCN)C(=O)N[C@@H](CC(C)(C)C)C(=O)N1,-,32 µg/mL
COc1cnc2c3c(nccc13)C(=O)c1ccccc1-2,ATCC 26934,3.12 µg/mL
CCC(C)n1ncn(-c2ccc(N3CCN(c4ccc(OC[C@H]5CO[C@](Cn6cncn6)(c6ccc(Cl)cc6Cl)O5)cc4)CC3)cc2)c1=O,Clinical isolates,2 µg/mL
CC(=O)Oc1c(Cl)cccc1C(=O)Nc1ccc(C(F)(F)F)cc1,231,3.91 µg/mL
C=C1/C=C(\C)[C@H](CC)OC(=O)[C@H](C)C(=O)C(O)(CO)C/C(C)=C/[C@@H](C)C1,MF5668,200 µg/mL
CCCCCS(=O)(=O)C(F)(F)[C@](O)(Cn1cncn1)c1ccc(F)cc1F,IFM 40808,8 µg/mL
CCCCCOc1ccc(-c2ccc(-c3ccc(C(=O)N[C@H]4C[C@@H](O)[C@@H](O)NC(=O)[C@@H]5[C@@H](O)[C@@H](C)CN5C(=O)[C@H]([C@H](C)O)NC(=O)[C@H]([C@H](O)[C@@H](O)c5ccc(O)cc5)NC(=O)[C@@H]5C[C@@H](O)CN5C(=O)[C@H]([C@H](C)O)NC4=O)cc3)cc2)cc1,28 isolates,≤0.03 µg/mL
CN(Cc1cccc2ccccc12)/N=C\c1ccccc1,-,>64 µg/mL
CCCCCCCCC[C@@H]1CC(=O)NCC(=O)N[C@@H](Cc2cnc[nH]2)C(=O)N[C@@H](C(C)C)C(=O)N1,TIMM0063,>32 µg/mL
CCCCCCCCC[C@@H]1NC(=O)[C@H](CC(C)(C)C)NC(=O)[C@H](CCCN)NC(=O)CNC(=O)C1(F)F,-,16 µg/mL
CC(=O)Oc1c(Cl)cccc1C(=O)Nc1cccc(Cl)c1,231,15.63 µg/mL
C[C@@H](n1ccn(-c2ccc(C(F)(F)F)cc2)c1=O)C(O)(Cn1cncn1)c1ccc(F)cc1F,IFO6344,4 µg/mL
O=C1CCC(c2ccc(Br)cc2)=NN1Cc1n[nH]c(=S)n1-c1ccc(Cl)cc1,-,7 µg/mL
CCc1c(C(c2ccccc2)n2ccnc2)cnn1-c1ccccc1,-,>200 µM
C[C@@H](n1ccn(-c2ccc(OC(F)(F)C(F)F)cc2)c1=O)C(O)(Cn1cncn1)c1ccc(F)cc1F,TIMM1728,1 µg/mL
CC(C(O)(Cn1cncn1)c1ccc(F)cc1F)S(C)(=O)=O,IFM 40808,>64 µg/mL
O=C1CCC(c2ccccc2)=NN1Cc1n[nH]c(=S)n1-c1ccc(Br)cc1,-,6 µg/mL
Cc1nc(N)nc(N)c1C#Cc1ccccc1,-,6.2 µg/mL
CCCCCCCCCCC[C@@H]1CC(=O)NCC(=O)N[C@@H](CCCCN)C(=O)N[C@@H]([C@@H](C)CC)C(=O)N1,TIMM0063,16 µg/mL
CN(Cc1cccc2ccccc12)/N=C\c1cccc2ccccc12,-,>64 µg/mL
OC(Cc1ccccn1)(Cn1cncn1)c1ccc(F)cc1F,IFM 40808,>8 µg/mL
CC(C)c1cccc(-c2nc3[n+]([nH]2)CCN([C@H](C)[C@](O)(C[n+]2cnc[nH]2)c2ccc(F)cc2F)C3)c1,7544,32 µg/mL
CC[C@@H]1OC(=O)[C@H](C)C(=O)C(O)(CO)C/C(SC)=C/[C@@H](C)Cc2cccc1c2,TIMM1776,>64 µg/mL
C=C1CCN(C(C)C(O)(Cn2cncn2)c2ccc(F)cc2F)CC1,KA-01,0.2 µg/mL
C[C@H]1[C@H](O)[C@@H](C)/C=C/C=C/C=C/C=C/C=C/C=C/C=C/[C@H](O[C@@H]2O[C@H](C)[C@@H](O)[C@H](N)[C@@H]2O)C[C@@H]2O[C@](O)(C[C@@H](O)C[C@@H](O)CC[C@H](O)[C@@H](O)C[C@@H](O)CC(=O)O[C@H]1C)C[C@H](O)[C@H]2C(=O)O,-,0.5 µg/mL
CC(=O)Oc1c(Cl)cccc1C(=O)Nc1ccc(Cl)c(Cl)c1,231,62.5 µg/mL
OC(Cn1cncn1)(c1ccc(C(F)(F)F)cc1)C(F)(F)c1cccs1,IFM 40808,>64 µg/mL
C=C1/C=C(\CO)[C@H](CC)OC(=O)[C@H](C)C(=O)C(O)(CO)C/C(C)=C/[C@@H](C)C1,MF5668,>200 µg/mL
CC(C)(C)c1c(C(c2ccccc2)n2cncn2)cnn1-c1ccccc1,-,>200 µM
CC(C(O)(Cn1cncn1)c1ccc(F)cc1F)S(C)(=O)=O,H11-20,10 µg/mL
CCCCCCCCCC[C@@H]1NC(=O)[C@H](CC(C)(C)C)NC(=O)[C@H](CCCCN)NC(=O)CNC(=O)[C@H]1O,-,32 µg/mL
Cc1cc2c3c(N)nc(N)nc3ccc2n1C,-,>50 µg/mL
NCCNC(=O)C1=Nc2ccc(NC(=O)C3=Nc4ccc(C(=O)Nc5ccc6[nH]c(C(=O)NCCN)cc6c5)cc4C3)cc2C1,-,>25 µg/mL
Cc1ccc(C(C)C)cc1,ATCC 46645,>20 µg/mL
C[C@@H]1CCC2(OC1)OC1CC3C4C[C@H](OC5O[C@@H](CO)[C@H](O)[C@@H](O)[C@@H]5O)[C@H]5C[C@@H](OC6O[C@H](CO)[C@@H](O)[C@H](O)[C@H]6O)CC[C@]5(C)C4CC[C@]3(C)C1[C@@H]2C,ATCC 90906,>20 µg/mL
COC(=O)C1OC2(CCCC(OC(C)=O)C(C)C/C=C/c3ccccc3)OC(C(=O)O)(C(OC(=O)CCCCCC/C=C/c3ccccc3)C2O)C1(O)C(=O)O,10569,3.1 µg/mL
CCC(C)n1ncn(-c2ccc(N3CCN(c4ccc(OC[C@H]5CO[C@](Cn6cncn6)(c6ccc(Cl)cc6Cl)O5)cc4)CC3)cc2)c1=O,H11-20,0.07 µg/mL
CCCCCCCCC[C@@H]1CC(=O)NCC(=O)N[C@@H](CCCCN)C(=O)N[C@@H](C(C)C)C(=O)N1,TIMM0063,>128 µg/mL
COC(/C=C/c1cccs1)=C1/C(=O)C=C(C)C1=O,ATCC 90906,>20 µg/mL
CC(=O)Oc1cc(Cl)ccc1C(=O)Nc1ccc(C(F)(F)F)cc1,231,7.81 µg/mL
O=C1C[C@@H](c2ccc(Cl)cc2)Cc2cc(O)cc(O)c21,Clinical isolate H237,145 µg/mL
CC(/C=C/C=C(\C)C(O)C(C)C(=O)O[C@H]1C[C@@H](C)C=C2C=C[C@]3(C)O[C@@H](O)CC(=O)[C@]3(C)[C@H]21)=C\C=C\C(=O)O,AC3449,50 µg/mL
CCCCCCCCC[C@@H]1CC(=O)NCC(=O)N[C@@H](CCCCN(C)C)C(=O)N[C@@H](C(C)C)C(=O)N1,TIMM0063,>128 µg/mL
Cn1c(C(F)(F)C(O)(Cn2cncn2)c2ccc(F)cc2F)nc2ccccc21,IFM 40808,>8 µg/mL
CCOC(=O)c1sc2cc(-c3ccc(Cl)cc3)oc(=O)c2c1N,AF-27,>100 µg/mL
CC(=O)Oc1c(Cl)cccc1C(=O)Nc1ccc(Cl)cc1,231,15.63 µg/mL
CCCc1c(C(c2ccccc2)n2ccnc2)cnn1-c1ccccc1,-,>200 µM
CCCCC(=O)OC1CC(OC(C)C(C)C(O)C(C)C(O)C(C)C2OC(=O)/C=C/CC(O)CC(O)CC(O)CCC(C)C(O)C[C@@]3(O)O[C@H](CC(O)CC(OC(=O)CC(=O)O)CCCC(O)C4OC4C2C)C[C@H](O)[C@H]3O)OC(C)C1O,IFM 41994,>100 µg/mL
C[C@@H](n1ccn(-c2ccc(F)cc2)c1=O)C(O)(Cn1cncn1)c1ccc(F)cc1F,437,16 µg/mL
CCS(=O)(=O)C(F)(F)C(O)(Cn1cncn1)c1ccc(F)cc1F,IFM 40808,8 µg/mL
C=C(Cl)CN1C[C@H](OCC23C[C@@H]4[C@H](C)CC[C@H]4C4(C=O)CC2C=C(C(C)C)C34C(=O)O)O[C@H](C)C1,-,16 µg/mL
Cc1noc(C)c1C(F)(F)C(O)(Cn1cncn1)c1ccc(F)cc1F,IFM 40808,>8 µg/mL
CCCCCc1ccc(C(=O)Oc2c(OC)cc3ccnc4c3c2N(C)C=C4)cc1,-,10 µg/mL
CCOC(=O)c1sc2cc(-c3cccc([N+](=O)[O-])c3)oc(=O)c2c1N,AF-27,>100 µg/mL
C[C@@H](N1CCN(c2ccc(C(F)(F)F)cc2)C1=O)C(O)(Cn1cncn1)c1ccc(F)cc1F,TIMM1728,1 µg/mL
CCCCCCCCC[C@@H]1CC(=O)NCC(=O)N[C@@H](CCCN=C(N)N)C(=O)N[C@@H](C(C)C)C(=O)N1,TIMM0063,64 µg/mL
CC(C)c1c(C(c2ccccc2)n2ccnc2)cnn1-c1ccccc1,-,>200 µM

Repeating the final 10 entries:

structure | strain or isolate | result
CCCCC(=O)OC1CC(OC(C)C(C)C(O)C(C)C(O)C(C)C2OC(=O)/C=C/CC(O)CC(O)CC(O)CCC(C)C(O)C[C@@]3(O)O[C@H](CC(O)CC(OC(=O)CC(=O)O)CCCC(O)C4OC4C2C)C[C@H](O)[C@H]3O)OC(C)C1O | IFM 41994 | >100 µg/mL
C[C@@H](n1ccn(-c2ccc(F)cc2)c1=O)C(O)(Cn1cncn1)c1ccc(F)cc1F | 437 | 16 µg/mL
CCS(=O)(=O)C(F)(F)C(O)(Cn1cncn1)c1ccc(F)cc1F | IFM 40808 | 8 µg/mL
C=C(Cl)CN1C[C@H](OCC23C[C@@H]4[C@H](C)CC[C@H]4C4(C=O)CC2C=C(C(C)C)C34C(=O)O)O[C@H](C)C1 | - | 16 µg/mL
Cc1noc(C)c1C(F)(F)C(O)(Cn1cncn1)c1ccc(F)cc1F | IFM 40808 | >8 µg/mL
CCCCCc1ccc(C(=O)Oc2c(OC)cc3ccnc4c3c2N(C)C=C4)cc1 | - | 10 µg/mL
CCOC(=O)c1sc2cc(-c3cccc([N+](=O)[O-])c3)oc(=O)c2c1N | AF-27 | >100 µg/mL
C[C@@H](N1CCN(c2ccc(C(F)(F)F)cc2)C1=O)C(O)(Cn1cncn1)c1ccc(F)cc1F | TIMM1728 | 1 µg/mL
CCCCCCCCC[C@@H]1CC(=O)NCC(=O)N[C@@H](CCCN=C(N)N)C(=O)N[C@@H](C(C)C)C(=O)N1 | TIMM0063 | 64 µg/mL
CC(C)c1c(C(c2ccccc2)n2ccnc2)cnn1-c1ccccc1 | - | >200 µM

Blank or dashed fields: not listed here.